The results in this text go back to the supplement of paper PMC9492666.

Conditions in all cases: 72 h
The test system of assay [1] is HCC1937. Nature of the assay: relative cell viability, compound + erastin, vs DMSO (fraction of DMSO control); higher = less growth inhibition.
Assay [2] relates to MDA-MB-231. The description is as above.
Assay [3] deals with HCC1937. Nature of the assay: relative cell viability, compound + RSL3, vs DMSO (fraction of DMSO control); higher = less growth inhibition.
Assay [4] relates to MDA-MB-231. Described as above.
For assay [5], the system named is HCC1937. In words: relative cell viability, compound alone, vs DMSO (fraction of DMSO control); higher = less growth inhibition.
Assay [6] concerns MDA-MB-231. The description is as above.

This is a selection; strong and weak results do not stand in their true shares.
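Throughout, for relative cell viability, compound + RSL3, vs DMSO: breast cancer cell viability read out with the CCK-8 kit after co-treatment of each compound with the ferroptosis inducer RSL3.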
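Throughout, for relative cell viability, compound + erastin, vs DMSO: viability read by CCK-8 kit in 96-well plates, part of a combination screen pairing lipid-metabolism-targeting compounds with erastin.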
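Throughout, for relative cell viability, compound alone, vs DMSO: viability read out with the CCK-8 kit in 96-well plates, screening a set of 303 compounds acting on lipid metabolism targets.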

`COc1ccc(C(=O)CBr)cc1` [PTP Inhibitor II] + CCOc1ccccc1-n1c(C(C)N2CCN(C(=O)COc3ccc(Cl)cc3)CC2)nc2ccccc2c1=O [erastin]: the relative cell viability in the assay on HCC1937 [1] turned out to be 0.764; in the assay on MDA-MB-231 [2] it was 0.9.
`O=P([O-])([O-])F.[Na+].[Na+]` [Disodium monofluorophosphate] + COC(=O)c1ccc([C@H]2c3[nH]c4ccccc4c3C[C@H](C(=O)OC)N2C(=O)CCl)cc1 [RSL3]: the relative cell viability amounted to 0.83 in the assay on HCC1937 [3] and 0.592 in the assay on MDA-MB-231 [4].
Turning to `O=P([O-])([O-])F.[Na+].[Na+]` [Disodium monofluorophosphate], the figures for the relative cell viability in the assay on HCC1937 [5] and in the assay with MDA-MB-231 [6] were 0.954 and 0.946, respectively.
Consider `COc1ccc(C(=O)CBr)cc1` [PTP Inhibitor II] + COC(=O)c1ccc([C@H]2c3[nH]c4ccccc4c3C[C@H](C(=O)OC)N2C(=O)CCl)cc1 [RSL3], for which the relative cell viability in the assay with HCC1937 [3] turned out to be 0.507; with MDA-MB-231 [4], 0.623.
On to `COc1ccc(C(=O)CBr)cc1` [PTP Inhibitor II], for which the relative cell viability is 0.711 in the assay with HCC1937 [5] and 0.896 in the assay on MDA-MB-231 [6].
As to `O=P([O-])([O-])F.[Na+].[Na+]` [Disodium monofluorophosphate] + CCOc1ccccc1-n1c(C(C)N2CCN(C(=O)COc3ccc(Cl)cc3)CC2)nc2ccccc2c1=O [erastin], the relative cell viability in the assay on HCC1937 [1] is 0.946; in the assay with MDA-MB-231 [2], 1.07.
